Structure probing of HIV-1 leader RNA with DMS

RNA: 5' end of the HIV-1 NL4-3 genome, made in vitro. Positions 1-437 read:
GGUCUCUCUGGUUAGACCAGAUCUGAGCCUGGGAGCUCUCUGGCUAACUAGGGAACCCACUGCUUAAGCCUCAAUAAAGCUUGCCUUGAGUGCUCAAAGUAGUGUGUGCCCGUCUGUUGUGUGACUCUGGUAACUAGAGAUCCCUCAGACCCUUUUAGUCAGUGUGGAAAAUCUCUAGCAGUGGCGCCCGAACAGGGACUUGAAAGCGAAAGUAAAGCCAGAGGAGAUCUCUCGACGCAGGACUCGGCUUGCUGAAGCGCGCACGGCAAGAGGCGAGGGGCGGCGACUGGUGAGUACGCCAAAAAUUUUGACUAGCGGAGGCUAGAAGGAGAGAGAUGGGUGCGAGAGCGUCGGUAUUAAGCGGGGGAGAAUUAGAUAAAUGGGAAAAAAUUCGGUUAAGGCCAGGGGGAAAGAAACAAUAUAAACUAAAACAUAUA

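Mutant RNA libraries with 1G, 2G or 3G starts, with or without cap, were folded at 37 °C for 30 min. High salt was 300 mM KCl and 5 mM MgCl2, low salt 40 mM KCl and 0.1 mM MgCl2; monomer and dimer were parted on a native gel. Gel slices were treated with 170 mM dimethyl sulfate for 15 min at 37 °C and read by mutational profiling against an ethanol control.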

Scale: normalised reactivity, A and C only; low values point to paired or protected bases, higher values to unpaired ones.
One numbering serves 1G, 2G and 3G.
A position is written with its base.

* A271: 1G uncapped high-salt monomer 0.54; 1G capped low-salt monomer 0.57; 3G uncapped low-salt dimer 0.47
* C274: 1G uncapped high-salt monomer 0.60; 1G capped low-salt monomer 0.67; 3G uncapped low-salt dimer 0.26
* A276: 1G uncapped high-salt monomer 0.98; 1G capped low-salt monomer 1.00; 3G uncapped low-salt dimer 0.40
* C281: 1G uncapped high-salt monomer 0.39; 1G capped low-salt monomer 0.43; 3G uncapped low-salt dimer 0.41
* C284: 1G uncapped high-salt monomer 0.19; 1G capped low-salt monomer 0.20; 3G uncapped low-salt dimer 0.15
* A286: 1G uncapped high-salt monomer 0.56; 1G capped low-salt monomer 0.50; 3G uncapped low-salt dimer 0.54
* C287: 1G uncapped high-salt monomer 0.29; 1G capped low-salt monomer 0.28; 3G uncapped low-salt dimer 0.47
* A293: 1G uncapped high-salt monomer 0.86; 1G capped low-salt monomer 0.76; 3G uncapped low-salt dimer 0.83
* A296: 1G uncapped high-salt monomer 0.59; 1G capped low-salt monomer 0.60; 3G uncapped low-salt dimer 0.48
* C297: 1G uncapped high-salt monomer 0.15; 1G capped low-salt monomer 0.17; 3G uncapped low-salt dimer 0.11
* C299: 1G uncapped high-salt monomer 0.06; 1G capped low-salt monomer 0.06; 3G uncapped low-salt dimer 0.06
* C300: 1G uncapped high-salt monomer 0.04; 1G capped low-salt monomer 0.05; 3G uncapped low-salt dimer 0.05
* A301: 1G uncapped high-salt monomer 0.27; 1G capped low-salt monomer 0.27; 3G uncapped low-salt dimer 0.24
* A302: 1G uncapped high-salt monomer 1.23; 1G capped low-salt monomer 1.24; 3G uncapped low-salt dimer 1.42
* A303: 1G uncapped high-salt monomer 0.08; 1G capped low-salt monomer 0.08; 3G uncapped low-salt dimer 0.09
* A304: 1G uncapped high-salt monomer 0.17; 1G capped low-salt monomer 0.16; 3G uncapped low-salt dimer 0.14
* A305: 1G uncapped high-salt monomer 0.73; 1G capped low-salt monomer 0.73; 3G uncapped low-salt dimer 0.67
* A311: 1G uncapped high-salt monomer 1.24; 1G capped low-salt monomer 1.19; 3G uncapped low-salt dimer 1.31
* C312: 1G uncapped high-salt monomer 0.11; 1G capped low-salt monomer 0.10; 3G uncapped low-salt dimer 0.10
* A314: 1G uncapped high-salt monomer 0.04; 1G capped low-salt monomer 0.04; 3G uncapped low-salt dimer 0.05
* C316: 1G uncapped high-salt monomer 0.11; 1G capped low-salt monomer 0.12; 3G uncapped low-salt dimer 0.07
* A319: 1G uncapped high-salt monomer 0.90; 1G capped low-salt monomer 0.88; 3G uncapped low-salt dimer 0.81
* C322: 1G uncapped high-salt monomer 0.04; 1G capped low-salt monomer 0.04; 3G uncapped low-salt dimer 0.05
* A324: 1G uncapped high-salt monomer 0.12; 1G capped low-salt monomer 0.11; 3G uncapped low-salt dimer 0.08
* A326: 1G uncapped high-salt monomer 0.84; 1G capped low-salt monomer 0.83; 3G uncapped low-salt dimer 0.88
* A327: 1G uncapped high-salt monomer 1.01; 1G capped low-salt monomer 0.99; 3G uncapped low-salt dimer 1.10
* A330: 1G uncapped high-salt monomer 0.91; 1G capped low-salt monomer 0.93; 3G uncapped low-salt dimer 0.88
* A332: 1G uncapped high-salt monomer 0.63; 1G capped low-salt monomer 0.65; 3G uncapped low-salt dimer 0.57
* A334: 1G uncapped high-salt monomer 0.53; 1G capped low-salt monomer 0.50; 3G uncapped low-salt dimer 0.39
* A336: 1G uncapped high-salt monomer 0.94; 1G capped low-salt monomer 0.86; 3G uncapped low-salt dimer 0.53
* C343: 1G uncapped high-salt monomer 0.35; 1G capped low-salt monomer 0.30; 3G uncapped low-salt dimer 0.31
* A345: 1G uncapped high-salt monomer 1.26; 1G capped low-salt monomer 1.20; 3G uncapped low-salt dimer 0.98
* A347: 1G uncapped high-salt monomer 0.28; 1G capped low-salt monomer 0.26; 3G uncapped low-salt dimer 0.12

2 of these entries, quoted again:

| position | 1G uncapped high-salt monomer | 1G capped low-salt monomer | 3G uncapped low-salt dimer |
|---|---|---|---|
| A304 | 0.17 | 0.16 | 0.14 |
| A345 | 1.26 | 1.20 | 0.98 |

The measurements come from Ye et al. 2022 (doi:10.1038/s41594-022-00746-2).